Results of unrelated studies side by side (data: NIAID ChemDB).

All rows: toxicity to cultured cells; endpoint: CC50

CCn: concentration that lowers growth or viability of the cells by n%. Neighbouring rows are from separate reports.

Oc1cccc(O)c1-c1c2nc(c(-c3c(O)cccc3O)c3ccc([nH]3)c(-c3c(O)cccc3O)c3nc(c(-c4c(O)cccc4O)c4ccc1[nH]4)C=C3)C=C2 ; cells: CV-1 ; value: 50 µg/mL
O=c1[nH]c(=O)n([C@@H]2O[C@H](CO)[C@@H](O)[C@@H]2F)cc1I ; cells: C1271 ; value: 4.7 µM
CCCCCCCCCCOc1ccc(/C(C)=N/N=C(/N)SC)cc1 ; cells: Chorioallantoic membrane ; value: 1000 µg/mL
NC(=O)c1csc([C@@H]2O[C@H](CO)[C@@H](O)[C@H]2O)n1 ; cells: LLC-MK2 ; value: >100 µg/mL
Nc1ncnc2c1ncn2[C@@H]1O[C@H](CO)[C@@H](O)[C@@H]1O ; cells: C1271 ; value: 55 µM
Nc1ncnc2c1ncn2[C@@H]1C[C@H](COP(=O)(O)O)[C@@H](O)[C@H]1O ; cells: PRK ; value: >400 µg/mL
Cc1cc(C)nc(NS(=O)(=O)c2ccc(N=C3C(=O)N(CN4CCNCC4)c4ccccc43)cc2)n1 ; cells: HFF ; value: 225 µM
Nc1nccc2c1ncn2[C@@H]1C[C@H](CO)[C@@H](O)[C@H]1O ; cells: LLC-MK2 ; value: >100 µg/mL
Nc1ncnc2c1ncn2C1CC(CO)[C@@H](O)[C@H]1O ; cells: HeLa ; value: 10 µg/mL
CCOC(OCC)c1cn([C@H]2C[C@H](OC(C)=O)[C@@H](COC(C)=O)O2)c(=O)[nH]c1=O ; cells: HFF ; value: >300 µM
CCn1c(-c2nccs2)cc(=O)c2cc(C(C)C)ccc21 ; cells: HeLa S3 ; value: >50 µg/mL
CS/C(N)=N\N=C(/C)c1ccc(Cl)cc1 ; cells: Chorioallantoic membrane ; value: 354.2 µg/mL
Cc1nc2c(N)ncnc2n1[C@@H]1O[C@H](CO)[C@@H](O)[C@H]1O ; cells: C1271 ; value: 5.2 µM
Cc1cc(C)nc(NS(=O)(=O)c2ccc(N=C3C(=O)Nc4ccc(Br)cc43)cc2)n1 ; cells: HFF ; value: >300 µM
Nc1nc(=O)n([C@@H]2O[C@H](CO)[C@@H](O)[C@@H]2O)cc1Cl ; cells: C1271 ; value: 65 µM
Cc1c(-c2ccccc2)n(C)c2ccc(NCC(C)C)cc2c1=O ; cells: HeLa S3 ; value: >5 µg/mL
Nc1nccc2c1ncn2[C@@H]1CC[C@@H](O)[C@H]1O ; cells: L929 ; value: 27.4 µM
COc1ccc(/C(C)=N/N=C(/N)SC)cc1 ; cells: Chorioallantoic membrane ; value: 180 µg/mL
CO[C@H]1[C@@H](O)[C@H](n2cnc3c(N)ncnc32)O[C@@H]1CO ; cells: C1271 ; value: 275 µM
Nc1ncnc2c1ncn2C[C@@H](CO)OCP(=O)(O)O ; cells: LLC-MK2 ; value: >100 µg/mL
Clc1ccc(-c2cc(SSc3cc(-c4ccc(Cl)cc4)sn3)ns2)cc1 ; cells: HEP-2 ; value: 88.39 µM
CCn1c(-c2ccccn2)cc(=O)c2cc(C(C)C)ccc21 ; cells: HeLa S3 ; value: >100 µg/mL
CC(N)C12CC3CC(CC(C3)C1)C2 ; cells: CEF ; value: >32 µM
Nc1ccn(C[C@H]2COP(=O)(O)CO2)c(=O)n1 ; cells: LLC-MK2 ; value: >100 µg/mL
Nc1nc2c(ncn2CCOCP(=O)(O)O)c(=O)[nH]1 ; cells: HFF ; value: >244 µM
Nc1nc(=O)n([C@@H]2C=C(CO)[C@@H](O)[C@H]2O)cc1F ; cells: MK2 ; value: 100 µg/mL
Cc1c(OCC(C)C)ccc2c1c(=O)cc(-c1ccccc1)n2C ; cells: HeLa S3 ; value: >5 µg/mL
Cc1ccc2c(c1)C(=Nc1ccc(S(=O)(=O)Nc3nc(C)cc(C)n3)cc1)C(=O)N2 ; cells: HFF ; value: >300 µM
C#Cc1nc2c(ncn2[C@@H]2O[C@H](CO)[C@@H](O)[C@H]2O)c(=O)[nH]1 ; cells: HFF ; value: 66.5 µg/mL
Nc1ccn(C[C@@H](CO)OCP(=O)(O)O)c(=O)n1 ; cells: LLC-MK2 ; value: >100 µg/mL
S=c1cc(-c2ccccc2)s[nH]1 ; cells: HEP-2 ; value: 90.75 µM

Again, the opening 4 rows:

compound	cells	value
Oc1cccc(O)c1-c1c2nc(c(-c3c(O)cccc3O)c3ccc([nH]3)c(-c3c(O)cccc3O)c3nc(c(-c4c(O)cccc4O)c4ccc1[nH]4)C=C3)C=C2	CV-1	50 µg/mL
O=c1[nH]c(=O)n([C@@H]2O[C@H](CO)[C@@H](O)[C@@H]2F)cc1I	C1271	4.7 µM
CCCCCCCCCCOc1ccc(/C(C)=N/N=C(/N)SC)cc1	Chorioallantoic membrane	1000 µg/mL
NC(=O)c1csc([C@@H]2O[C@H](CO)[C@@H](O)[C@H]2O)n1	LLC-MK2	>100 µg/mL